Anti-infective test results gathered from many reports (values: NIAID ChemDB through PubChem).

All rows: target-level tests; agent: HIV-1; target: Reverse transcriptase; endpoint: IC50

Two numbers with a dash give a range or band. Blank or dashed fields: not listed here. Neighbouring rows are from separate reports. ICn: concentration for n% inhibition.

{"SMILES": "CCN1c2ncc(CCOc3ccc(C(=O)Nc4cccc(CC(=O)O)c4)cc3C)cc2C(=O)N(C)c2cccnc21", "strain or isolate": "IIIB", "method": "nucleotide incorporation / radiometric", "value": "<0.05 µM"}
{"SMILES": "CC(C)(C#Cc1ccc(NC(=O)CSc2nnnn2-c2ccc(C3CC3)cc2Cl)c(Cl)c1)NS(C)(=O)=O", "strain or isolate": "WT", "method": "PicoGreen / fluorescence", "value": "<1 µM"}
{"SMILES": "CCN1c2ncc(CCOc3ccc(C(=O)O)c4c3CCN(S(C)(=O)=O)C4)cc2C(=O)N(C)c2cccnc21", "changes": "RT-V106A", "method": "nucleotide incorporation / radiometric", "value": ">1 µM"}
{"SMILES": "CC(C)(C#Cc1ccc(NC(=O)CSc2nnnn2-c2ccc(C(C)(C)C)cc2Cl)c(Cl)c1)COC(N)=O", "strain or isolate": "WT", "method": "PicoGreen / fluorescence", "value": "<1 µM"}
{"SMILES": "Cc1ccc2c(C)cc(C)c(-n3c(SCC(=O)Nc4ccc(S(N)(=O)=O)cc4C)nnc3C(F)F)c2n1", "changes": "RT-Y181C", "method": "nucleotide incorporation / radiometric", "value": ">0.1 µM"}
{"SMILES": "CC(C)(C#Cc1ccc(NC(=O)CSc2nnnn2-c2cc(Cl)ccc2Cl)c(Cl)c1)NC(=O)c1cc[n+]([O-])cc1", "changes": "RT-K103 Y181C", "method": "PicoGreen / fluorescence", "value": "<1 µM"}
{"SMILES": "CCNC(=O)N1CCc2c(OCCc3cnc4c(c3)C(=O)N(C)c3cccnc3N4CC)ccc(C(=O)O)c2C1", "changes": "RT-K103N Y181C", "method": "nucleotide incorporation / radiometric", "value": "0.1–1 µM"}
{"SMILES": "COc1ccc2c(C3CC3)ccc(-n3c(Br)nnc3SCC(=O)Nc3ccc(S(N)(=O)=O)cc3Cl)c2c1", "changes": "RT-Y188L", "method": "nucleotide incorporation / radiometric", "value": "0.05–0.1 µM"}
{"SMILES": "CC(C)(O)C#Cc1ccc(NC(=O)CSc2nnnn2-c2ccc(C3CC3)cc2Cl)c(Br)c1", "changes": "RT-K103 Y181C", "method": "PicoGreen / fluorescence", "value": "<1 µM"}
{"SMILES": "CCOC(=O)C(C)NS(=O)(=O)c1ccc(NC(=O)CSc2nnc(C(F)F)n2-c2ccc(C)c3c2CCCC3)c(Cl)c1", "method": "nucleotide incorporation / radiometric", "value": "<0.05 µM"}
{"SMILES": "CCN1c2ncc(CCOc3ccc(CCC(=O)O)c4c3CCCC4)cc2C(=O)N(C)c2cccnc21", "strain or isolate": "WT", "method": "nucleotide incorporation / radiometric", "value": "<0.1 µM"}
{"SMILES": "CCNC(=O)NC(C)(C)C#Cc1ccc(NC(=O)CSc2nnnn2-c2ccc(C3CC3)cc2Cl)c(Cl)c1", "changes": "RT-K103 Y181C", "method": "PicoGreen / fluorescence", "value": "<1 µM"}
{"SMILES": "CCN1c2ncc(CCOc3ccc(CC(=O)O)c4ccccc34)cc2C(=O)N(C)c2ccc(Cl)nc21", "changes": "RT-V106A", "method": "nucleotide incorporation / radiometric", "value": ">1 µM"}
{"SMILES": "C=C(C)C#Cc1ccc(NC(=O)CSc2nnnn2-c2ccc(C3CC3)cc2Cl)c(Cl)c1", "changes": "RT-K103 Y181C", "method": "PicoGreen / fluorescence", "value": "<1 µM"}
{"SMILES": "CCN1c2ncc(CCOc3ccc(C(=O)O)c4c3CCC4)cc2C(=O)N(C)c2ccc(Cl)nc21", "changes": "RT-Y188L", "method": "nucleotide incorporation / radiometric", "value": "0.1–1 µM"}
{"SMILES": "COC(=O)[C@@H](NC(=O)c1ccc(NC(=O)CSc2nnc(Br)n2-c2ccc(C3CC3)c3ccccc23)c(Cl)c1)C(C)C", "changes": "RT-Y181C", "method": "nucleotide incorporation / radiometric", "value": "<0.05 µM"}
{"SMILES": "CCN1c2ncc(CCOc3ccc(C(=O)N=c4ccccn4O)cc3C)cc2C(=O)Nc2c(C)ccnc21", "strain or isolate": "IIIB", "method": "nucleotide incorporation / radiometric", "value": "<0.05 µM"}
{"SMILES": "CCN1c2ncc(CCOc3ccc(NC(=O)CCC(=O)O)c4ccccc34)cc2C(=O)N(C)c2cccnc21", "changes": "RT-Y188L", "method": "nucleotide incorporation / radiometric", "value": ">1 µM"}
{"SMILES": "CCc1ccc(-n2c(Br)nnc2SCC(=O)Nc2ccc(S(N)(=O)=O)cc2Cl)c2c1CCCC2", "method": "nucleotide incorporation / radiometric", "value": "<0.05 µM"}
{"SMILES": "CCN1c2ncc(CCOc3ccc(C(=O)Nc4cccn(CC(=O)O)c4=O)cc3C)cc2C(=O)N(C)c2cccnc21", "strain or isolate": "IIIB", "method": "nucleotide incorporation / radiometric", "value": "<0.05 µM"}
{"SMILES": "CC(C)(C#Cc1ccc(NC(=O)CSc2nnnn2-c2ccc(C3(C)CC3)cc2Cl)c(Cl)c1)C(=O)O", "strain or isolate": "WT", "method": "PicoGreen / fluorescence", "value": "<1 µM"}
{"SMILES": "CCN1c2ncc(CCOc3ccc(CC(=O)O)c4ccccc34)cc2C(=O)Nc2c(C)cc(Cl)nc21", "strain or isolate": "WT", "method": "nucleotide incorporation / radiometric", "value": "<0.1 µM"}
{"SMILES": "CC(C)(C)c1ccc(-n2nnnc2SCC(=O)Nc2ccc(C(=O)NCc3ccc(N)cc3)cc2Cl)c(Cl)c1", "changes": "RT-K103 Y181C", "method": "PicoGreen / fluorescence", "value": "<1 µM"}
{"SMILES": "Cc1cc(C2CC2)c2ccccc2c1-n1c(Br)nnc1SCC(=O)Nc1ccc(S(N)(=O)=O)cc1Cl", "method": "nucleotide incorporation / radiometric", "value": "<0.05 µM"}
{"SMILES": "CC(C)(C#Cc1ccc(NC(=O)CSc2nnnn2-c2ccc(C3CC3)cc2Cl)c(Cl)c1)C(=O)NS(=O)(=O)c1ccccc1", "changes": "RT-K103 Y181C", "method": "PicoGreen / fluorescence", "value": "<1 µM"}
{"SMILES": "CCN1c2ncc(CCOc3ccc(-c4ccc(C(=O)O)o4)cc3)cc2C(=O)N(C)c2cccnc21", "strain or isolate": "IIIB", "changes": "RT-K103N Y181C", "method": "nucleotide incorporation / radiometric", "value": "0.05–0.1 µM"}
{"SMILES": "CCCc1ccc(-n2c(Br)nnc2SCC(=O)Nc2ccc(S(N)(=O)=O)cc2Cl)c2ccccc12", "method": "nucleotide incorporation / radiometric", "value": "<0.05 µM"}

2 of the rows above, restated:

SMILES	strain or isolate	changes	method	value
CCN1c2ncc(CCOc3ccc(CC(=O)O)c4ccccc34)cc2C(=O)Nc2c(C)cc(Cl)nc21	WT		nucleotide incorporation / radiometric	<0.1 µM
CC(C)(O)C#Cc1ccc(NC(=O)CSc2nnnn2-c2ccc(C3CC3)cc2Cl)c(Br)c1		RT-K103 Y181C	PicoGreen / fluorescence	<1 µM